# Reference: paper PMC9180926, “Discovery of Novel 3-Hydroxyquinazoline-2,4(1H,3H)-Dione Derivatives: A Series of Metal Ion Chelators with Potent Anti-HCV Activities” (International Journal of Molecular Sciences, 2022)
# “And” between values parts separate entries of the source, which are not always exact repeats. Identical values can stand only once.
# System: HCV 1b replicon cells (Huh-7.5.1)
# Assay: Anti-HCV assay, HCV 1b replicon cells with luciferase reporter
# Assay type: cell-based, hepatitis C virus (HCV) subtype 1b
# Details: calculated as CC50/EC50
# Method: The HCV replicons were validated as convenient and effective models for testing the anti-HCV activity. Since HCV subtype 1b is one of the major subtypes worldwide, especially in China, the replicon model from the Huh-7.5.1 cell line integrating HCV 1b genome encoding the nonstructural proteins was chosen to evaluate the anti-HCV activities of 3-hydroxyquinazoline-2,4(1H,3H)-diones. The inhibitory rates of the compounds on HCV replicon cells were determined at concentrations of 25 μM and 10 μM, respectively. The broad-spectrum antiviral drug ribavirin (RBV) and the NS5B nucleoside inhibitor 2′-C-methyladenosine (2CMA) were selected as positive controls. The cytotoxicity of these compounds on replicon cells was determined using the cell counting kit-8 (CCK-8) assay.
# HCV 1b replicon cells (Huh-7.5.1) containing luciferase reporter gene were kindly provided by Prof. Zhenghong Yuan (Key Laboratory of Medical Molecular Virology, Fudan University, Shanghai, China). The replicon cells were plated at 1.5 × 10^4 cells per well in a 48-well plate (Corning Inc., New York, NY, USA) at 5% CO2/37 °C. The culture medium was Dulbecco’s Modified Eagle Medium (DMEM, pH 7.3, Shanghai XP Biomed Ltd., Shanghai, China) containing 10% fetal bovine serum (Shanghai XP Biomed Ltd., Shanghai, China), 10^5 U/L penicillin, 0.1 g/L streptomycin, and 0.5 μg/mL blasticidin. After 12 h, the culture medium in each well was replaced with 300 μL of pre-prepared fresh culture medium containing test compound (dissolved in DMSO with specific concentration) or blank DMSO. The final concentration of DMSO in the culture medium in the plate was 0.1%. Each group was tested at least twice in parallel. Ribavirin and 2CMA were used as the positive controls. After incubating the drug-added plate at 5% CO2/37 °C for 72 h, the medium was removed, and each well was washed with 300 μL of phosphate buffer solution (PBS, Shanghai XP Biomed Ltd., Shanghai, China). The cells in each well were then lysed with 50 μL of 1× lysis buffer (E2820, Promega, Madison, WI, USA). Subsequently, 50 μL of 1× luciferase assay substrate (E2820, Promega, Madison, WI, USA) was mixed with 20 μL of the harvested cell lysates.
# The inhibitory rates under at least six different concentration gradients were imported into GraphPad Prism 7.0 software to calculate the anti-HCV EC50 values of the compounds using the nonlinear fitting method.
row,SMILES,TI (therapeutic index)
1,"O=C(Cn1c(=O)n(O)c(=O)c2ccccc21)Nc1ccc(C(F)(F)F)cc1 [10p, 2-(3-Hydroxy-2,4-dioxo-3,4-dihydroquinazolin-1(2H)-yl)-N-(4-(trifluoromethyl)phenyl)acetamide]",1.9
2,"O=c1[nH]c2cc(-c3ccc(F)cc3F)ccc2c(=O)n1O [21n, 7-(2,4-Difluorophenyl)-3-hydroxyquinazoline-2,4(1H,3H)-dione]",2.9
3,"O=c1[nH]c2cc(-c3cc4ccccc4o3)ccc2c(=O)n1O [21t, 7-(Benzofuran-2-yl)-3-hydroxyquinazoline-2,4(1H,3H)-dione]",> 25
4,"Cn1c(=O)n(O)c(=O)c2cc(-c3cccc([N+](=O)[O-])c3)ccc21 [23a, 3-Hydroxy-1-methyl-6-(3-nitrophenyl)quinazoline-2,4(1H,3H)-dione]",2.3
5,"O=c1c2ccccc2n(CCc2ccc(F)cc2)c(=O)n1O [10d, 1-(4-Fluorophenethyl)-3-hydroxyquinazoline-2,4(1H,3H)-dione]",1.7
6,"O=c1[nH]c2cc(-c3ccc(C(F)(F)F)cc3)ccc2c(=O)n1O [21h, 3-Hydroxy-7-(4-(trifluoromethyl)phenyl)quinazoline-2,4(1H,3H)-dione]",> 5.2
7,"O=C(Cn1c(=O)n(O)c(=O)c2ccccc21)c1ccccc1 [10e, 3-Hydroxy-1-(2-oxo-2-phenylethyl)quinazoline-2,4(1H,3H)-dione]",1.2
8,"CCn1c(=O)n(O)c(=O)c2ccc(-c3ccccc3)cc21 [23e, 1-Ethyl-3-hydroxy-7-phenylquinazoline-2,4(1H,3H)-dione]",1.5
9,"NC(=O)c1ncn([C@@H]2O[C@H](CO)[C@@H](O)[C@H]2O)n1 [RBV, ribavirin, reference compound]",2.3
10,"O=c1[nH]c2cc(-c3ccc(F)c(Cl)c3)ccc2c(=O)n1O [21l, 7-(3-Chloro-4-fluorophenyl)-3-hydroxyquinazoline-2,4(1H,3H)-dione]",5.2
11,"COc1ccc(-c2ccc3[nH]c(=O)n(O)c(=O)c3c2)cc1 [21c, 3-Hydroxy-6-(4-methoxyphenyl)quinazoline-2,4(1H,3H)-dione]",2.1
12,"O=c1[nH]c2cc(Br)ccc2c(=O)n1O [compound 19, 7-Bromo-3-hydroxyquinazoline-2,4(1H,3H)-dione]",2.0
13,"COc1ccc(-c2ccc3c(=O)n(O)c(=O)[nH]c3c2)cc1F [21o, 7-(3-Fluoro-4-methoxyphenyl)-3-hydroxyquinazoline-2,4(1H,3H)-dione]",1.1–1.8 and 1.1
14,"O=c1[nH]c2ccc(-c3cccc([N+](=O)[O-])c3)cc2c(=O)n1O [21d, 3-Hydroxy-6-(3-nitrophenyl)quinazoline-2,4(1H,3H)-dione]",1.4
15,"O=c1[nH]c2ccc(-c3ccc(F)cc3)cc2c(=O)n1O [21b, 6-(4-Fluorophenyl)-3-hydroxyquinazoline-2,4(1H,3H)-dione]",1.3
16,"O=c1[nH]c2cc(-c3cccc([N+](=O)[O-])c3)ccc2c(=O)n1O [21k, 3-Hydroxy-7-(3-nitrophenyl)quinazoline-2,4(1H,3H)-dione]",11.7
17,"N#Cc1ccc(NC(=O)Cn2c(=O)n(O)c(=O)c3ccccc32)cc1 [10n, N-(4-Cyanophenyl)-2-(3-hydroxy-2,4-dioxo-3,4-dihydroquinazolin-1(2H)-yl)acetamide]",1.7
18,"Cn1c(=O)n(O)c(=O)c2ccc(-c3ccc(F)cc3)cc21 [23c, 7-(4-Fluorophenyl)-3-hydroxy-1-methylquinazoline-2,4(1H,3H)-dione]",1.8
19,"O=C(Cn1c(=O)n(O)c(=O)c2ccc(-c3ccco3)cc21)Nc1ccccc1Cl [23j, N-(2-Chlorophenyl)-2-(7-(furan-2-yl)-3-hydroxy-2,4-dioxo-3,4-dihydroquinazolin-1(2H)-yl)acetamide]",2.3
20,"COc1ccc(-c2ccc3c(=O)n(O)c(=O)[nH]c3c2)cc1 [21i, 3-Hydroxy-7-(4-methoxyphenyl)quinazoline-2,4(1H,3H)-dione]",1.1–1.8 and 1.6
21,"O=c1[nH]c2cc(-c3ccco3)ccc2c(=O)n1O [21s, 7-(Furan-2-yl)-3-hydroxyquinazoline-2,4(1H,3H)-dione]",4.1
22,"Cc1ccc(F)cc1-c1ccc2c(=O)n(O)c(=O)[nH]c2c1 [21p, 7-(5-Fluoro-2-methylphenyl)-3-hydroxyquinazoline-2,4(1H,3H)-dione]",1.4
23,"COc1ccc(-c2ccc3c(=O)n(O)c(=O)n(C)c3c2)cc1 [23d, 3-Hydroxy-7-(4-methoxyphenyl)-1-methylquinazoline-2,4(1H,3H)-dione]",2.8
24,"O=c1[nH]c2cc(-c3ccc(F)cc3)ccc2c(=O)n1O [21f, 7-(4-Fluorophenyl)-3-hydroxyquinazoline-2,4(1H,3H)-dione]",1.3
25,"O=c1[nH]c2cc(-c3ccccc3)ccc2c(=O)n1O [21e, 3-Hydroxy-7-phenylquinazoline-2,4(1H,3H)-dione]",1.7
26,"O=c1[nH]c2ccc(-c3ccccc3)cc2c(=O)n1O [21a, 3-Hydroxy-6-phenylquinazoline-2,4(1H,3H)-dione]",1.3
27,"Cn1c(=O)n(O)c(=O)c2ccc(-c3ccccc3)cc21 [23b, 3-Hydroxy-1-methyl-7-phenylquinazoline-2,4(1H,3H)-dione]",1.7
28,"Nc1ccccc1-c1ccc2c(=O)n(O)c(=O)[nH]c2c1 [21g, 7-(2-Aminophenyl)-3-hydroxyquinazoline-2,4(1H,3H)-dione]",1.1–1.8 and 1.8
29,"Nc1cccc(-c2ccc3c(=O)n(O)c(=O)[nH]c3c2)c1 [21j, 7-(3-Aminophenyl)-3-hydroxyquinazoline-2,4(1H,3H)-dione]",1.1–1.8 and 1.8
30,"C[C@@]1(O)[C@H](O)[C@@H](CO)O[C@H]1n1cnc2c(N)ncnc21 [2CMA, 2′-C-methyladenosine, reference compound]",>27
